Pooled drug test results. Numbers come from NIAID ChemDB, via PubChem.

Shared fields: growth or infection tests; agent: HIV-1; endpoint: inhibition

Inhibition is in % at the dose shown (toxicity tests: loss of growth or viability). An empty or dashed field is not shown. Lines come from different laboratories, so protocols vary. a–b is a range or a potency band.

{"SMILES": "CCOc1ccccc1CCNC(=S)Nc1nccs1", "tested at": "100 µg/mL", "read by": "cytopathic effect / XTT", "cells": "MT-4", "result": "100%"}
{"SMILES": "C[C@H]1[C@H](O)[C@@H](C)/C=C/C=C/C=C/C=C/C=C/C=C/C=C/[C@H](O[C@@H]2O[C@H](C)[C@@H](O)[C@H](N)[C@@H]2O)C[C@@H]2O[C@](O)(C[C@@H](O)C[C@@H](O)CC[C@H](O)[C@@H](O)C[C@@H](O)CC(=O)O[C@H]1C)C[C@H](O)[C@H]2C(=O)O", "tested at": "0.1 µg/mL", "strain": "IIIB", "read by": "p24 / antigen", "cells": "H9", "result": "29%"}
{"SMILES": "N=C1Sc2ccccc2C2=NCCCN12", "tested at": "0.53 µM", "strain": "RU132", "read by": "β-galactosidase", "cells": "PBMC", "result": "90%"}
{"SMILES": "CC(=O)CCC(=O)NCCCOCCOCCCNC(=O)CNC(=O)[C@H](CS)NC(=O)[C@@H](NC(=O)[C@@H](NC(=O)[C@H](CO)NC(=O)[C@@H](N)CS)C(C)C)[C@@H](C)O", "tested at": "0.132 µM", "strain": "IIIB", "read by": "p24", "cells": "PBMC(PHA STIM.) + PBMC", "result": "20%"}
{"SMILES": "C[C@@H]1CN(C(=O)c2ccccn2)CCN1C(=O)C(=O)c1c[nH]c2c(F)ccc(F)c12", "tested at": "10 µM", "read by": "luciferase", "cells": "HeLa + HELA CD4+/CCR5", "result": ">98%"}
{"SMILES": "COc1ccc(CCNC(=S)Nc2nccs2)cc1OC", "tested at": "10 µg/mL", "read by": "cytopathic effect / XTT", "cells": "MT-4", "result": "54–58%"}
{"SMILES": "CC1(C)[C@@H](O[C@H]2O[C@H](C(=O)O)[C@@H](O)[C@H](O)[C@H]2O[C@@H]2O[C@H](C(=O)O)[C@@H](O)[C@H](O)[C@H]2O)CC[C@]2(C)[C@H]3C(=O)C=C4[C@@H]5C[C@@](C)(C(=O)O)CC[C@]5(C)CC[C@@]4(C)[C@]3(C)CC[C@@H]12", "tested at": "1200 µM", "strain": "IIIB", "conditions": "3 d", "read by": "antigen", "cells": "MOLT-4", "result": "36.2%"}
{"SMILES": "O=c1oc2cc(O)cc(O)c2c(O)c1-c1coc2c1c(=O)oc1cc(O)cc(O)c12", "tested at": "10 µM", "strain": "IIIB", "read by": "MTT", "cells": "MT-4", "result": "92%"}
{"SMILES": "Cc1ccnc(NC(=O)NCCc2ccccc2)n1", "tested at": "10 µg/mL", "read by": "cytopathic effect / XTT", "cells": "MT-4", "result": "64%"}
{"SMILES": "Cc1cc(C(=O)N2CCN(C(=O)C(=O)c3c[nH]c4c(F)ccc(F)c34)CC2)oc1C", "tested at": "10 µM", "read by": "luciferase", "cells": "HeLa + HELA CD4+/CCR5", "result": ">98%"}
{"SMILES": "CC(C)[C@H](NC(=O)[C@H](CO)NC(=O)[C@H](CS)NC(=O)CCC(=O)NCCCOCCOCCCN)C(=O)N[C@H](C(=O)N[C@@H](CS)C(=O)NCC(=O)O)[C@@H](C)O", "tested at": "1.32 µM", "strain": "BaL", "read by": "p24", "cells": "PBMC(PHA STIM.) + PBMC", "result": "50%"}
{"SMILES": "C[C@H]1[C@H](O)[C@@H](C)/C=C/C=C/C=C/C=C/C=C/C=C/C=C/[C@H](O[C@@H]2O[C@H](C)[C@@H](O)[C@H](N)[C@@H]2O)C[C@@H]2O[C@](O)(C[C@@H](O)C[C@@H](O)CC[C@H](O)[C@@H](O)C[C@@H](O)CC(=O)O[C@H]1C)C[C@H](O)[C@H]2C(=O)O", "tested at": "3.7 µM", "strain": "CMU06 CLADE E X4 (SI)", "read by": "p24 / RT activity", "cells": "PBMC", "result": "90%"}
{"SMILES": "S=C(NCCc1ccccc1)N1CCOCC1", "tested at": "0.1 µg/mL", "read by": "cytopathic effect / XTT", "cells": "MT-4", "result": "0%"}
{"SMILES": "CCCCCCCCCCCCCCCCOP(=O)(OCCO[C@@H]1O[C@H](CO)[C@@H](O)[C@H](O)[C@@H]1O)OC[C@H]1O[C@@H](n2cc(C)c(=O)[nH]c2=O)C[C@@H]1N=[N+]=[N-]", "tested at": "0.2 µM", "strain": "LAV-Bru", "conditions": "26 d", "read by": "RT activity", "cells": "CEM", "result": "0%"}
{"SMILES": "O=C(C(=O)N1CCN(C(=O)c2ccccc2)CC1)c1c[nH]c2c(F)cccc12", "tested at": "10 µM", "read by": "luciferase", "cells": "HeLa + HELA CD4+/CCR5", "result": ">98%"}
{"SMILES": "Cc1cn([C@H]2C[C@H](N=[N+]=[N-])[C@@H](COP(=O)(O)OCCO[C@H]3O[C@H](CO)[C@@H](O)[C@H](O)[C@@H]3O)O2)c(=O)[nH]c1=O", "tested at": "5 µM", "strain": "LAV-Bru", "conditions": "14 d", "read by": "RT activity", "cells": "U-937", "result": "0%"}
{"SMILES": "CC(=O)N1C(=O)[C@@H](Cc2ccccc2)NC1=S", "tested at": "10 µg/mL", "read by": "cytopathic effect / XTT", "cells": "MT-4", "result": "26%"}
{"SMILES": "COc1cccc2[nH]cc(C(=O)C(=O)N3CCN(C(=O)c4cccc(N)c4)C[C@H]3C)c12", "tested at": "10 µM", "read by": "luciferase", "cells": "HeLa + HELA CD4+/CCR5", "result": ">98%"}
{"SMILES": "O=C1NC(=S)N[C@@H]1Cc1ccccc1", "tested at": "0.1 µg/mL", "read by": "cytopathic effect / XTT", "cells": "MT-4", "result": "8%"}
{"SMILES": "CCCCCCCCCCCCCCCCOP(=O)(OC[C@H]1OC(O)[C@@H](O)[C@@H](O)[C@@H]1O)OC[C@H]1O[C@@H](n2cc(C)c(=O)[nH]c2=O)C[C@@H]1N=[N+]=[N-]", "tested at": "0.2 µM", "strain": "LAV-Bru", "conditions": "14 d", "read by": "RT activity", "cells": "U-937", "result": "0%"}
{"SMILES": "O=C(C(=O)N1CCN(C(=O)c2ccc(Br)cc2S)CC1)c1c[nH]c2cccc(Cl)c12", "tested at": "10 µM", "read by": "luciferase", "cells": "HeLa + HELA CD4+/CCR5", "result": ">98%"}
{"SMILES": "CN1C(=O)N(C)C(=O)C2(C1=O)[C@@H](c1ccco1)CC(=O)C[C@H]2[C@H]1COC(C)(C)O1", "tested at": "0.0001 µM", "strain": "NL4-3", "read by": "MTT", "cells": "SupT1", "result": ">30%"}
{"SMILES": "Cc1ccc(-c2ccc3c(c2)C=C(C(=O)Nc2ccc(C[N+](C)(C)C4CCOCC4)cc2)CCC3)cc1", "tested at": "1 µM", "strain": "TB6 CLADE C", "read by": "p24", "cells": "PBMC", "result": "100%"}
{"SMILES": "O=C(C(=O)N1CCN(C(=O)c2cc(Cl)ccc2S)CC1)c1c[nH]c2cccc(F)c12", "tested at": "10 µM", "read by": "luciferase", "cells": "HeLa + HELA CD4+/CCR5", "result": ">98%"}
{"SMILES": "COC(=O)C(=O)c1csc(NC(=O)NCCc2ccccc2)n1", "tested at": "10 µg/mL", "read by": "cytopathic effect / XTT", "cells": "MT-4", "result": "0%"}

A second listing of 4 rows from above:

SMILES	tested at	strain	conditions	read by	cells	result
Cc1ccnc(NC(=O)NCCc2ccccc2)n1	10 µg/mL			cytopathic effect / XTT	MT-4	64%
CC(=O)N1C(=O)[C@@H](Cc2ccccc2)NC1=S	10 µg/mL			cytopathic effect / XTT	MT-4	26%
Cc1cn([C@H]2C[C@H](N=[N+]=[N-])[C@@H](COP(=O)(O)OCCO[C@H]3O[C@H](CO)[C@@H](O)[C@H](O)[C@@H]3O)O2)c(=O)[nH]c1=O	5 µM	LAV-Bru	14 d	RT activity	U-937	0%
O=C(C(=O)N1CCN(C(=O)c2ccc(Br)cc2S)CC1)c1c[nH]c2cccc(Cl)c12	10 µM			luciferase	HeLa + HELA CD4+/CCR5	>98%